Values of other authors as cited in patent US20230056788A1, “METHODS AND COMPOSITIONS FOR THE INHIBITION OF HEPATITIS B AND HEPATITIS D VIRUS INFECTIONS” (priority 2020, published 2023).

Tested on: HBV
Conditions: in vivo

(2′OMeA, 2′OMe-5-MeC)20
safety and tolerability: safe, well tolerated
